Measured values from several laboratories, pooled; numbers as filed in NIAID ChemDB.

Shared fields: cytotoxicity tests; cells: HEL; read-out: CC50

CCn: concentration that lowers growth or viability of the cells by n%. Neighbouring rows are from separate reports.

structure | value
Cc1ccc(C)c(C(Cl)S(=O)(=O)c2cccc(C)[n+]2[O-])c1 | ≥100 µg/mL
O=C1OC(C(O)Cn2cc(C(F)(F)F)c(=O)[nH]c2=O)C(OCc2ccccc2)=C1OCc1ccccc1 | 31.7 µg/mL
Cc1ccn2c(CSCc3ccccc3Cl)cnc2c1 | 18 µg/mL
Cc1c(O)c(=O)ccn1[C@@H]1CS[C@@H](CO)O1 | >400 µM
O=C1O/C(=C\Cn2cc(C(F)(F)F)c(=O)[nH]c2=O)C(O)=C1O | >50 µg/mL
CO[C@H](CO)[C@@H](O)CCn1cnc2c(=O)[nH]c(N)nc21 | >400 µg/mL
O=S(=O)(Cc1c(Cl)ccc(Cl)c1Cl)c1cccc[n+]1[O-] | 6.5 µg/mL
Cc1cn([C@@H]2CO[C@H](CO)[C@@H](O)C2)c(=O)[nH]c1=O | >50 µg/mL
Nc1ncnc2c1ncn2[C@@H]1C=C(CO)[C@@H](O)[C@H]1O | >20 µg/mL
C/C=C\c1nc2c(N)ncnc2n1[C@H]1C[C@H](O)[C@@H](CO)O1 | >50 µg/mL
CCCCCCc1cc2cn([C@H]3C[C@H](O)[C@@H](CO)O3)c(=O)nc2[nH]1 | >50 µM
Cc1cc(Br)cn2c(CSCc3ccccc3)cnc12 | >50 µg/mL
CCCCCCCc1cc2cn([C@H]3C[C@H](O)[C@@H](CO)O3)c(=O)nc2o1 | >50 µM
O=c1[nH]c(=O)n([C@H]2C[C@H](O)[C@@H](CO)O2)cc1/C=C/Br | >200 µg/mL
Nc1nc2c(ncn2COCCO)c(=O)[nH]1 | 533 µM
COc1cc([C@@H]2c3cc4c(cc3[C@@H](O)[C@H]3COC(=O)[C@]23F)OCO4)cc(OC)c1OC | 5 µM
CCCCCCCCCCCCc1cc2cn([C@H]3C[C@H](O)[C@@H](CO)O3)c(=O)nc2[nH]1 | >200 µM
CCCCCCCc1ccc(-c2cc3cn(C4CC[C@@H](CO)O4)c(=O)nc3o2)cc1 | >200 µM
O=c1[nH]c(=O)n([C@H]2C[C@H](O)[C@@H](CO)O2)cc1C#CCCCCCCCCCF | 116 µM
Nc1nc2c(ncn2COC(CO)CO)c(=O)[nH]1 | 154 µg/mL
CC1(C)[C@@H](CO)CC[C@@]1(C)Cn1nnc2c(Cl)ncnc21 | >50 µg/mL
C=CCCCc1cc2cn([C@H]3C[C@H](O)[C@@H](CO)O3)c(=O)nc2o1 | >200 µM
C[C@@H](NC(=O)N1C(=O)C[C@@]1(Cc1ccccc1)C(=O)OC(C)(C)C)c1ccccc1 | 70 µM
CCCCc1ccc(-c2cc3cn(C4CC[C@@H](CO)O4)c(=O)nc3o2)cc1 | >200 µM
CCCCCCCCCCc1cc2cn([C@H]3C[C@H](O)[C@@H](CO)O3)c(=O)nc2n1C | 179 µM
Nc1nc2c(ncn2CCC(CO)CO)c(=O)[nH]1 | >790 µM
O=c1[nH]c(=O)n([C@H]2C[C@H](O)[C@@H](CO)O2)cc1F | 0.017 µM
C#CCCCCc1cc2cn([C@H]3C[C@H](O)[C@@H](CO)O3)c(=O)nc2o1 | >200 µM
Nc1ncnc2c1ncn2[C@@H]1C[C@@H](O)[C@@H](O)[C@H]1O | 115 µg/mL
[O-][n+]1cc(Cl)ccc1SCc1ccccc1 | 66 µg/mL
O=c1nc2oc(CCCCOc3ccccc3)cc2cn1[C@H]1C[C@H](O)[C@@H](CO)O1 | >200 µM
CCCCCCCCc1cc2cn([C@H]3C[C@H](O)[C@@H](CO)O3)c(=O)nc2[nH]1 | >50 µM
Nc1ncnc2c1ncn2[C@H]1C[C@@H](O)[C@H](O)[C@@H]1O | 50 µg/mL
CCCCCCCCCC[N+](C)(C)CCCNCc1c(O)cc2c(c1O)-c1cc(ccc1O)[C@H]1NC(=O)[C@@H]3NC(=O)C4NC(=O)[C@@H](Cc5ccc(c(Cl)c5)Oc5cc3cc(c5O)Oc3ccc(cc3Cl)[C@@H](O)[C@H](NC1=O)C(=O)N[C@@H]2C(=O)O)NC(=O)[C@H](N)c1ccc(O)c(c1)Oc1cc(O)cc4c1 | ≥200 µM
CCCCCCCCCCc1cc2cn([C@H]3C[C@H](O)[C@@H](CO)O3)c(=O)nc2n1CCC | 47 µM
Cc1ccn2c(CSCc3ccccc3)c(-c3ccncc3)nc2c1 | >50 µg/mL
Nc1nc2c(ncn2CC(CO)OCP(=O)(O)O)c(=O)[nH]1 | 10 µg/mL
Cc1cn(CC[C@H](O)CCO)c(=O)[nH]c1=O | >400 µg/mL
C[C@H](NC(=O)N1C(=O)C[C@]1(Cc1ccccc1)C(=O)OC(C)(C)C)c1ccccc1 | 164 µM
COC(=O)[C@]1(C)CCC[C@]2(C)c3ccc4nc5c(nc4c3CCC12)CCCC5 | 13 µg/mL
Cc1cccn2c(CSCc3ccccc3)c(-c3ccccc3)nc12 | 13 µg/mL
COC(=O)[C@]1(C)CCC[C@]2(C)c3cc(Br)c4nc(C(F)(F)F)[nH]c4c3CCC12 | 0.7 µg/mL
Cc1ccn2c(CSCc3ccccc3)c(-c3cccs3)nc2c1 | 14 µg/mL
CCOc1ccccc1CS(=O)c1cccc[n+]1[O-] | 69 µg/mL
Cc1ccn2c(CSCc3ccccc3)c(-c3cccnc3)nc2c1 | >50 µg/mL
Nc1ccn(C[C@@H](CO)OCP(=O)(O)O)c(=O)n1 | 200 µg/mL
O=C(O)P(=O)(O)O | >666 µM
C=CCCCCCCCCc1cc2cn([C@H]3C[C@H](O)[C@@H](CO)O3)c(=O)nc2o1 | >200 µM
CCCCCCCCCCc1cc2cn([C@H]3C[C@H](O)[C@@H](CO)O3)c(=O)nc2n1CC | 34 µM
Cc1cccn2c(CSCc3ccccc3)cnc12 | 8 µg/mL
C#CCCCCCCc1cc2cn([C@H]3C[C@H](O)[C@@H](CO)O3)c(=O)nc2o1 | >200 µM
N#C/C(=C/c1ccc(Cl)cc1Cl)S(=O)(=O)c1cccc[n+]1[O-] | 7.1 µg/mL
CC(C)(C)OC(=O)C1(Cc2ccccc2)CC(=O)N1C(=O)Nc1ccccc1 | 118 µM
COC(=O)[C@]1(C)CCC[C@]2(C)c3cc4cc[nH]c4cc3CCC12 | 16 µg/mL
Cc1ccc[n+]([O-])c1SC(C)c1ccccc1 | 60 µg/mL
C[C@H](NC(=O)[C@H](Cc1ccccc1)NC(=O)[C@H](C)NC(=O)[C@]1(Cc2ccccc2)CCN1C(=O)OCc1ccccc1)NC(C)(C)C | >100 µM
CCCCCCCCCCCCc1cc2cn([C@H]3C[C@H](O)[C@@H](CO)O3)c(=O)nc2o1 | >200 µM
Cc1cc[n+]([O-])c(S(=O)(=O)Cc2ccc(Cl)cc2)c1 | 20 µg/mL
O=c1[nH]c(=O)n([C@H]2C[C@H](O)[C@@H](CO)O2)cc1C#CCCCCCCCCCI | 68 µM
COc1ccc(CS(=O)c2cccc[n+]2[O-])cc1OC | 1.3 µg/mL
O=c1[nH]c(=O)n([C@H]2C[C@H](O)[C@@H](CO)O2)cc1-c1cc(-c2ccc(Cl)cc2)no1 | >200 µg/mL
CC(Cl)(c1ccccc1)S(=O)(=O)c1cccc[n+]1[O-] | >20 µg/mL
CCCCCCCCCc1cc2cn([C@H]3C[C@H](O)[C@@H](CO)O3)c(=O)nc2o1 | >50 µM
CCCCC/C=C\c1nc2c(N)ncnc2n1[C@H]1C[C@H](O)[C@@H](CO)O1 | 20 µg/mL
Cc1c(O)c(=O)ccn1[C@H]1CS[C@@H](CO)O1 | >100 µM
C=C[C@H](O)C1=C[C@@H](n2cnc3c(N)ncnc32)[C@H](O)[C@@H]1O | >50 µg/mL
CCCCCC#Cc1nc2c(N)ncnc2n1[C@H]1C[C@H](O)[C@@H](CO)O1 | 6 µg/mL
Nc1ncnc2c1ncn2CC[C@H](O)CCO | >400 µg/mL
Cc1ccc(C)c(C(CO)S(=O)(=O)c2ccccn2)c1 | >20 µg/mL
Cc1ccn2c(CSCc3ccccc3)cnc2c1 | 45 µg/mL
O=S(=O)(Cc1ccccc1I)c1cccc[n+]1[O-] | 25 µg/mL
CCCCCc1ccc(-c2cc3cn(C4CC[C@@H](CO)O4)c(=O)nc3o2)cc1 | >200 µM
Nc1ccn(C[C@H]2COP(=O)(O)CO2)c(=O)n1 | >200 µg/mL
Cc1ccn2c(CSCc3ccccc3)c(-c3ccc4ccccc4c3)nc2c1 | 16 µg/mL
CC1(C)[C@@H](CO)CC[C@@]1(C)Cn1cc(I)c(=O)[nH]c1=O | >50 µg/mL
N[C@H]1C(=O)N[C@@H]2Cc3ccc(c(Cl)c3)Oc3cc4cc(c3OCc3ccc(-c5ccccc5)cc3)Oc3ccc(cc3Cl)[C@@H](O)[C@@H]3NC(=O)[C@H](NC(=O)[C@@H]4NC(=O)[C@@H](NC2=O)c2cc(O)cc(c2)Oc2cc1ccc2O)c1ccc(O)c(c1)-c1c(O)cc(O)cc1[C@@H](C(=O)O)NC3=O | 48 µM
c1ccc(CSc2ccccn2)cc1 | 51 µg/mL
CCc1ccc(OCCCc2cc3cn([C@H]4C[C@H](O)[C@@H](CO)O4)c(=O)nc3o2)cc1 | >200 µM
O=S(=O)(Cc1ccccc1)c1cccc[n+]1[O-] | >50 µg/mL
Nc1nc2c(ncn2COC(CO)CO)c(=O)[nH]1 | 85 µg/mL
COc1cc(/C=C(/C#N)Sc2cccc[n+]2[O-])cc(OC)c1OC | 3.3 µg/mL
COc1cc([C@@H]2c3cc4c(cc3[C@@H](Nc3ccc(F)cc3)[C@H]3COC(=O)[C@]23F)OCO4)cc(OC)c1O | 6.1 µM
O=c1[nH]c(=O)n([C@@H]2CO[C@H](CO)[C@@H](O)C2)cc1I | >50 µg/mL
Nc1nc2c(ncn2CC[C@H](O)CCO)c(=O)[nH]1 | >400 µg/mL
O=c1nc2oc(CCCSc3ccccc3)cc2cn1[C@H]1C[C@H](O)[C@@H](CO)O1 | >200 µM
CC1(C)[C@@H](CO)CC[C@@]1(C)Cn1cnc2c(=O)[nH]cnc21 | >50 µg/mL
COC(=O)[C@]1(C)CCC[C@]2(C)c3ccc4[nH]cnc4c3CCC12 | 5.1 µg/mL
CCCCCCCCCCc1cc2cn([C@H]3C[C@H](O)[C@@H](CO)O3)c(=O)nc2o1 | >50 µM
Cc1ccc(C)c(C(C)S(=O)(=O)c2cccc[n+]2[O-])c1 | 50 µg/mL
N[C@H]1C(=O)N[C@@H]2Cc3ccc(c(Cl)c3)Oc3cc4cc(c3O)Oc3ccc(cc3Cl)[C@@H](O)[C@@H]3NC(=O)[C@H](NC(=O)[C@@H]4NC(=O)[C@@H](NC2=O)c2cc(O)cc(c2)Oc2cc1ccc2O)c1ccc(O)c(c1)-c1c(cc(O)c(CN2CCN(N=Cc4ccc(Cl)cc4)CC2)c1O)[C@@H](C(=O)O)NC3=O | >50 µM
Nc1nccc2c1ncn2C[C@@H](CO)OCP(=O)(O)O | 9 µg/mL
Cc1ccccc1C(Sc1cccc[n+]1[O-])C(N)=O | >50 µg/mL
Cc1c(Br)cc(Br)c2ncc(CSCc3ccccc3)n12 | >50 µg/mL
Cc1c(Cl)ccc(C(C)S(=O)c2cccc[n+]2[O-])c1Cl | 0.09 µg/mL
COc1cc([C@@H]2c3cc4c(cc3[C@@H](O)[C@H]3COC(=O)[C@]23F)OCO4)cc(OC)c1O | 8.2 µM
CC(c1ccccc1)S(=O)c1cccc[n+]1[O-] | 1.4 µg/mL
Cc1cccn2c(CSCc3ccccc3)cnc12 | >50 µg/mL
Cc1ccccc1CS(=O)(=O)c1cccc[n+]1[O-] | 23 µg/mL
O=c1nc2oc(CCCCCCCCCI)cc2cn1[C@H]1C[C@H](O)[C@@H](CO)O1 | >200 µM
O=c1[nH]c(=O)n([C@H]2C[C@H](O)[C@@H](CO)O2)cc1/C=C/Br | >400 µM
CCCCCCCCc1cc2cn([C@H]3C[C@H](O)[C@@H](CO)O3)c(=O)nc2[nH]1 | >50 µM